Results of unrelated studies side by side (data: NIAID ChemDB).

All rows: growth or infection tests; species: Candida albicans; read-out: MIC

Blank or dashed fields: not listed here. Rows are shuffled and stem from different studies.

compound	strain	read by	result
C[C@H](N)C(=O)N[C@@H](CB1OC2CC3CC(C3(C)C)[C@@]2(C)O1)Cc1ccccc1		agar	≤500 µg/mL
CN1C(c2ccccc2)C/C(=N\OCc2ccccc2)C(Cl)C1c1ccccc1			100 µg/mL
Clc1ccccc1CN(Cc1ccc(-c2ccccc2)cc1)n1ccnc1			33 µM
OC(Cn1cncn1)(c1ccc(F)cc1)C(F)(F)c1cccs1	ATCC 90028		≤0.125 µg/mL
O=C1NC(=O)/C(=C\c2ccccc2)S1	MTCC 227	broth dilution / visual reading	500 µg/mL
C[C@@H](B1OC2CC3CC(C3(C)C)[C@@]2(C)O1)[C@@H](Cc1ccccc1)NC(=O)C(N)Cc1ccccc1		agar	≤500 µg/mL
COc1ccc(C[C@H](N)C(=O)N[C@H]2[C@@H](O)[C@H](n3cnc4c(N)ncnc43)O[C@@H]2C(=O)O)cc1	FP-614		0.8 µg/mL
CC1(C)C2CC3OB(C[C@@H](CCc4ccccc4)NC(=O)[C@@H](N)CCCCN)O[C@]3(C)C1C2		agar	≤500 µg/mL
COc1cc(/C=C/C(=O)CC(=O)/C=C/c2ccc(O)c(OC)c2)ccc1O	20 strains	broth dilution / visual reading	100 µg/mL
N=C(N)c1ccc(OCCCCCCOc2ccc(C(=N)N)cc2)cc1	Ca3	agar diffusion / agar	20 µg/mL
N#CSc1ccc2nc(NC(=O)CN3C(=O)S/C(=C/c4cccc(-c5ccco5)c4)C3=O)sc2c1	MTCC 227	broth dilution / visual reading	500 µg/mL
CC(C)(C)CSc1cc(=S)ss1	Clinical isolate 00-622		8 µg/mL
CCCCCCCCCC[C@H]1NC(=O)[C@H](CC(C)(C)C)NC(=O)[C@H](CCCCN)NC(=O)CNC(=O)[C@H]1O			16 µg/mL
Cc1cc(NC(=O)c2ccc(NC(=O)COc3ccccc3C)cc2)no1	ATCC 10231		>100 µg/mL
N#CSc1ccc2nc(NC(=O)CN3C(=O)S/C(=C/c4ccc(O)cc4)C3=O)sc2c1	MTCC 227	broth dilution / visual reading	1000 µg/mL
C[C@@H](SC1COC(/C=C/C=C/c2ccc(C#N)cc2)OC1)[C@](O)(Cn1cncn1)c1ccc(F)cc1F	ATCC64550		0.5 µg/mL
CCSc1ssc(=S)c1-c1ccccc1	ATCC 10231		>250 µg/mL
CN1CCN(c2nc(Nc3ccc(C#N)c(C(F)(F)F)c3)nc(Oc3ncnc4ccccc34)n2)CC1	MTCC 183		>100 µg/mL
Cc1nn(S(=O)(=O)c2ccccc2)c(C)c1C(F)(F)C(O)(Cn1cncn1)c1ccc(F)cc1F	ATCC 90028		2 µg/mL
Cc1ccc(OCC(=O)Nc2ccc(C(=O)Nc3cc(C)on3)cc2)cc1	ATCC 10231		>100 µg/mL
CCCCCCCCC[C@H]1NC(=O)[C@H](CC(C)(C)C)NC(=O)[C@H](CCCN)NC(=O)CNC(=O)C1(F)F			64 µg/mL
Cc1c(O)cccc1C(=O)N[C@@H](CSc1ccccc1)[C@H](O)CN1C[C@H]2CCCC[C@H]2C[C@H]1C(=O)NC(C)(C)C	I116A		>64 µg/mL
CC1(C)C2CC3OB(C[C@@H](Cc4ccccc4)NC(=O)[C@@H](N)Cc4ccccc4)O[C@]3(C)C1C2		agar	≤500 µg/mL
N#CSc1ccc2nc(NC(=O)CN3C(=O)S/C(=C/c4ccccc4Cl)C3=O)sc2c1	MTCC 227	broth dilution / visual reading	250 µg/mL
C[C@@H](B1OC2CC3CC(C3(C)C)[C@@]2(C)O1)[C@@H](Cc1ccccc1)NC(=O)[C@H](Cc1ccccc1)NC(=O)[C@@H](N)CCCCN		agar	≤500 µg/mL
COc1ccc(CN(Cc2ccc(-c3ccccc3)cc2)n2ccnc2)cc1			200 µM
N#CSc1ccc2nc(NC(=O)CCl)sc2c1	MTCC 227	broth dilution / visual reading	500 µg/mL
C[C@@H](SC1COC(/C=C/C=C/c2ccc(C#N)cc2F)OC1)[C@](O)(Cn1cncn1)c1ccc(F)cc1F	TIMM3165		0.063 µg/mL
CCC1/C=C/C=C/CCC(O)C(C)C(O)CC(OC)CC(O)C(C)C(O)C(CC)/C=C/C(=O)OC2CC3(CCC(C)C(CC(O)C(C)O)O3)OC(CC1)C2CCCO			12.5 µg/mL
O=[N+]([O-])c1ccc(C(F)(F)C(O)(Cn2cncn2)c2ccc(F)cc2F)o1	ATCC 90028		0.125 µg/mL
CC(C)=CCC1=CC(=O)C=C(C)C1=O	ATCC 10231		130 µg/mL
Cc1cc(NC(=O)c2cccc(NC(=O)COc3ccc(Cl)cc3Cl)c2)no1	ATCC 10231		>100 µg/mL
S=c1cc(SCc2ccccc2)ss1	ATCC 10231		125 µg/mL
Cc1cc(NC(=O)c2ccccc2NC(=O)COc2ccccc2C)no1	ATCC 10231		>100 µg/mL
CCCCCCCCC[C@@H]1NC(=O)[C@H](CC(C)(C)C)NC(=O)[C@H](CCCN)NC(=O)CNC(=O)C1(F)F			16 µg/mL
OC(Cn1cncn1)(c1ccc(F)cc1F)C(F)(F)c1ccccn1	ATCC 90028		≤0.125 µg/mL
Cc1cc(NC(=O)c2cccc(NC(=O)COc3ccccc3)c2)no1	ATCC 10231		>100 µg/mL
Cc1ccc(/C=C2/SC(=O)NC2=O)cc1	MTCC 227	broth dilution / visual reading	250 µg/mL
Fc1ccc(CN(Cc2ccc(-c3ccccc3)cc2)n2ccnc2)cc1			33 µM
S=c1cc(Sc2ccccc2)ss1	Clinical isolate 00-604		<0.13 µg/mL
CCCCCCCCC[C@@H]1CC(=O)NCC(=O)N[C@@H](CCCCN)C(=O)N[C@@H](CC(C)(C)C)C(=O)N1			16 µg/mL
Cc1cc(NC(=O)c2ccc(NC(=O)COc3cccc(Cl)c3Cl)cc2)no1	ATCC 10231		>100 µg/mL
Clc1ccc(CN(Cc2ccc(-c3ccccc3)cc2)n2ccnc2)cc1			33 µM
N#Cc1ccc(Nc2nc(Oc3ncnc4ccccc34)nc(N3CCCCC3)n2)cc1C(F)(F)F	MTCC 183		100 µM
CCSc1ssc(=S)c1OC	ATCC 10231		62.5 µg/mL

6 of the rows above, restated:

Clc1ccc(CN(Cc2ccc(-c3ccccc3)cc2)n2ccnc2)cc1 ; result: 33 µM
CCCCCCCCC[C@@H]1CC(=O)NCC(=O)N[C@@H](CCCCN)C(=O)N[C@@H](CC(C)(C)C)C(=O)N1 ; result: 16 µg/mL
CCCCCCCCC[C@H]1NC(=O)[C@H](CC(C)(C)C)NC(=O)[C@H](CCCN)NC(=O)CNC(=O)C1(F)F ; result: 64 µg/mL
OC(Cn1cncn1)(c1ccc(F)cc1)C(F)(F)c1cccs1 ; strain: ATCC 90028 ; result: ≤0.125 µg/mL
CN1C(c2ccccc2)C/C(=N\OCc2ccccc2)C(Cl)C1c1ccccc1 ; result: 100 µg/mL
Cc1ccc(OCC(=O)Nc2ccc(C(=O)Nc3cc(C)on3)cc2)cc1 ; strain: ATCC 10231 ; result: >100 µg/mL